The test system of series [1] is MBP-ComH (Helicobacter pylori 26695). The experiment in a line: EMSA. As to conditions: EMSA: 10 mM Tris-HCl pH 7.5, 50 mM KCl, ~100 mM NaCl, 0.1 mM MgCl2, 1 mM DTT, 0.1 µg/µl BSA, on ice 30 min, recombinant protein, residues 20-479, protein details: N-terminal MBP. For orientation: Mobility shift assays separate free from complexed probe on a gel.
The target of series [2] is T1, ComH-His6 (Helicobacter pylori 26695) (UniProt O26055).
T1 sequence (looked up, limits assumed): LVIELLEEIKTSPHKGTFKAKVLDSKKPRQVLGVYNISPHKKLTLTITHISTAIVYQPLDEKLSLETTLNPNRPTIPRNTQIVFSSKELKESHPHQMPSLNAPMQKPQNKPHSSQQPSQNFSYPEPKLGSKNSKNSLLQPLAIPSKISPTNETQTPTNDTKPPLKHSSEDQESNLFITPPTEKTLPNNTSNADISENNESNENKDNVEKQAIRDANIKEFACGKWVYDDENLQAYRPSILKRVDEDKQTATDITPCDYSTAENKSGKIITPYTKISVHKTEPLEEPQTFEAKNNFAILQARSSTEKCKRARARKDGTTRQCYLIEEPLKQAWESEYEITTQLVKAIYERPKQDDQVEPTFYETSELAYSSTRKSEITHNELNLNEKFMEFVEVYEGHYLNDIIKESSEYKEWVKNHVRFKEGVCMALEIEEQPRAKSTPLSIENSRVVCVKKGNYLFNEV
The experiment in a line: SPR. The settings on record: residual binding; SPR: PBS + 0.005% Tween20, 25 °C; recombinant protein; protein details: C-terminal His6; label: 5'-biotin; single-stranded DNA.

Series [3] concerns MBP-ComH-NTD (Helicobacter pylori 26695). The experiment in a line: EMSA. As to conditions: negligible affinity; EMSA: 10 mM Tris-HCl pH 7.5, 50 mM KCl, ~100 mM NaCl, 0.1 mM MgCl2, 1 mM DTT, 0.1 µg/µl BSA, on ice 30 min; recombinant protein; residues 20-169; protein details: N-terminal MBP; label: 5'-Cy5 on strand 1.
Series [4] concerns MBP-ComH-CTD (Helicobacter pylori 26695). The series can be described thus: EMSA. The settings on record: EMSA: 10 mM Tris-HCl pH 7.5, 50 mM KCl, ~100 mM NaCl, 0.1 mM MgCl2, 1 mM DTT, 0.1 µg/µl BSA, on ice 30 min; recombinant protein; residues 170-479; protein details: N-terminal MBP; label: 5'-Cy5 on strand 1.

For some assays here: The comparison behind a weaker result is the experiment's own reference, which may not be listed here. For some assays here: Tags and fusion partners may be left off the protein sequences shown. For some assays here: The exact form of at least one protein or probe is not confirmed. For some assays here: No signal at the amounts used counts as a negative. For some assays here: At least one verdict rests on a figure or table, not on a statement of the authors.

On to “TGACTAACGATGCTAGACCTCGAGGACTGATCGATGCTA (double strand) [39 bp dsDNA (Cy5-PNK3 + cPNK3)]”, for which the binding result in series [1] (200 nM protein, stable up to 600 mM NaCl or KCl, label: Cy5 on strand 1) is listed as “binds”.

On to “TAGCATCGATCAGTCCTC / GAGGTCTAGCATCGTTAGTCA / TGACTAACGATGCTAGACCTCGAGGACTGATCGATGCTA [Nicked DNA (Cy5-PNK1 + PNK2-TAMRA + PNK3)]”, for which, in series [1], the binding result is “binds”.

Turning to “TAGCATCGATCAGTCCTC / TGACTAACGATGCTAGACCTCGAGGACTGATCGATGCTA [5'-overhang DNA (Cy5-PNK1 + PNK3)]”, the binding result in series [1] (label: 5'-Cy5 on strand 1) is on record as “binds”.

For the sequence “GTAGTGCTGTAGGAGAATATACGGGCTGCTCGTGTTGACAAGTACTGATG [50-mer ssDNA (Op249)]”, the binding result in series [2] is “binds more weakly”.

As to “TAGCATCGATCAGTCCTC [18-mer ssDNA (Cy5-PNK1)]”, the binding result in series [1] (label: 5'-Cy5, single-stranded DNA) is “no binding”.

Consider “TAGCATCGATCAGTCCTC (double strand) [18 bp dsDNA (Cy5-PNK1 + cPNK1)]”, for which the figures for the binding result in series [3], in series [1] (label: 5'-Cy5 on strand 1) and in series [4] were “no binding”, “binds” and “binds”, respectively.

(Values after article PMC6877725, “Identification of the periplasmic DNA receptor for natural transformation of Helicobacter pylori”.)
